Legend:
[1] = target: Bifunctional dihydrofolate reductase-thymidylate synthase (Plasmodium falciparum K1) (UniProt P13922); assay: Inhibition of the S108N mutant of dihydrofolate reductase (DHFR)relative to Tmp.
[2] = target: Bifunctional dihydrofolate reductase-thymidylate synthase (Plasmodium falciparum K1) (UniProt P13922); assay: Inhibition of the C59R+S108N mutant of dihydrofolate reductase (DHFR)relative to Tmp.

The chains behind the UniProt entries cited, without tags or fusion partners. Where a name states a change or a piece, a line headed by the entry shows the natural chain unless it says otherwise.
UniProt P13922: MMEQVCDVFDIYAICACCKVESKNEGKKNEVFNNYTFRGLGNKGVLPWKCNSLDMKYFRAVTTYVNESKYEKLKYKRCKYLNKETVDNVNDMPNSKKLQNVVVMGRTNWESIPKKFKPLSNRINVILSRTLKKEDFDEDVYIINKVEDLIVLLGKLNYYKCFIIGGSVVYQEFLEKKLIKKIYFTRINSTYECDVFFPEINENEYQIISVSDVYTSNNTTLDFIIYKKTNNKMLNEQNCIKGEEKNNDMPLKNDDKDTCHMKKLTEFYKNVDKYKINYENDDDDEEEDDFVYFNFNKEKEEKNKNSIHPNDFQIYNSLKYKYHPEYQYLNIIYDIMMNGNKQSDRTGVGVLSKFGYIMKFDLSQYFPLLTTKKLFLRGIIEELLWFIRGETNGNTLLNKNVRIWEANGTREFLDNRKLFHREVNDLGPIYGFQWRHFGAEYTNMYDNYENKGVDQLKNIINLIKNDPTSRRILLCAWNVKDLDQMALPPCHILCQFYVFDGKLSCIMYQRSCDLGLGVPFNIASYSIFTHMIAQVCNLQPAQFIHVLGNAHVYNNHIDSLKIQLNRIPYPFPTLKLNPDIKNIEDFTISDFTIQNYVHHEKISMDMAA

COc1cc(Cc2cnc(N)nc2N)ccc1OCc1cc(OC)c(OC)c(OC)c1
Relative activity [1]: 0.05
Relative activity [2]: 0.04

— ChEMBL document CHEMBL1135602 (J Med Chem, 2002)
